In patent publication US20250064844A1 (Emory University, priority 2020, published 2025):

System: SARS/COVID-19 nsp12 chimera-luc
Assay: Antiviral assay, SARS/COVID-19 nsp12 chimera-luc in Huh-7

O=c1nc(NO)ccn1C1OC(CO)C(O)C1O (stereo not shown) [EIDD-1931, 1-(3,4-dihydroxy-5-(hydroxymethyl)tetrahydrofuran-2-yl)-4-(hydroxyamino)pyrimidin-2-one] gave an EC50 of 70 nM.
